US12285407B2, “Bis-indolylmethane derivatives and uses thereof” (The University of The West Indies, priority 2018, dated 2025)

Tested on: α-hemolysin production in Staphylococcus aureus
Test: Inhibition of hemolysin production, sheep blood hemolytic assay
Type: cell-based

Question: For `Oc1cc(C(c2c[nH]c3ccccc23)c2c[nH]c3ccccc23)cc(O)c1O` [SP-BIM 13, 5-(di(1H-indol-3-yl)methyl)benzene-1,2,3-triol], which “hemolysin production in S. aureus cells” value is on record?
Answer: inhibits hemolysin production
